Measured values taken from PMC4567410 (Virology, 2015).

System: Vif-dependent degradation of A3G
Format: cell-based
Conditions: YFP-A3G assay, 293T cells

Structure (SMILES)	effect on Vif-dependent degradation of A3G
COC(=O)c1ccc(O)c2nc3c(C=O)c(O)cc(O)c3nc12 [lomofungin]	little effect
COc1cc(-c2ccc(Nc3ccccc3C(=O)O)c(OC)c2)ccc1Nc1ccccc1C(=O)O [redoxal]	little effect
